Residues, ends and D or L forms follow the SMILES beside them.
What was measured:
[1] = Circular dichroism, helical structure in zwitterionic lipid vesicles; type: physicochemical; conditions: CD, from [θ]222; zwitterionic PC/Chol (8:1, w/w) vesicles ~500 μM; peptide ~25 μM
[2] = Circular dichroism, helical structure in negatively charged lipid vesicles; type: physicochemical; conditions: CD, from [θ]222; negatively charged PC/PG (3:1 w/w) vesicles ~500 μM; peptide ~25 μM

Compound | % α-Helix in PC/Chol [1] [%] | % α-Helix in PC/PG [2] [%]
CC[C@H](C)[C@H](NC(=O)CNC(=O)[C@H](CCCNC(=N)N)NC(=O)[C@H](Cc1ccccc1)NC(=O)[C@@H](NC(=O)[C@H](Cc1c[nH]cn1)NC(=O)[C@H](Cc1c[nH]cn1)NC(=O)[C@H](Cc1ccccc1)NC(=O)[C@@H](N)Cc1ccccc1)[C@@H](C)CC)C(=O)N[C@H](C(=O)N[C@@H](Cc1c[nH]cn1)C(=O)N[C@H](C(=O)NCC(=O)N[C@@H](CCCCN)C(=O)N[C@H](CCCCN)C(=O)N[C@H](C(=O)N[C@@H](Cc1c[nH]cn1)C(=O)N[C@@H](CCCNC(=N)N)C(=O)N[C@@H](CC(C)C)C(=O)N[C@H](C(=O)N[C@H](CCCCN)C(=O)NCC(N)=O)C(C)C)[C@@H](C)CC)C(C)C)C(C)C [T15,21dK Piscidin-1] (HELM PEPTIDE1{F.F.H.H.I.F.R.G.I.V.H.V.G.K.[dK].I.H.R.L.V.[dK].G.[am]}$$$$V2.0) | 9.51 | 42.99
CC[C@H](C)[C@H](NC(=O)CNC(=O)[C@H](CCCNC(=N)N)NC(=O)[C@H](Cc1ccccc1)NC(=O)[C@@H](NC(=O)[C@H](Cc1c[nH]cn1)NC(=O)[C@H](Cc1c[nH]cn1)NC(=O)[C@H](Cc1ccccc1)NC(=O)[C@@H](N)Cc1ccccc1)[C@@H](C)CC)C(=O)N[C@H](C(=O)N[C@@H](Cc1c[nH]cn1)C(=O)N[C@H](C(=O)NCC(=O)N[C@@H](CCCCN)C(=O)N[C@H](CCCCN)C(=O)N[C@H](C(=O)N[C@@H](Cc1c[nH]cn1)C(=O)N[C@@H](CCCNC(=N)N)C(=O)N[C@@H](CC(C)C)C(=O)N[C@H](C(=O)N[C@H](C(=O)NCC(N)=O)[C@@H](C)O)C(C)C)[C@@H](C)CC)C(C)C)C(C)C [T15dK Piscidin-1] (HELM PEPTIDE1{F.F.H.H.I.F.R.G.I.V.H.V.G.K.[dK].I.H.R.L.V.T.G.[am]}$$$$V2.0) | 28.03 | 45.40
H-FFHHIFRGIVHVGKKIHRLVKG-NH2 [T15,21K Piscidin-1] | 27.33 | 59.59
H-FFHHIFRGIVHVGKKIHRLVTG-NH2 [T15K Piscidin-1] | 46.59 | 59.89
H-FFHHIFRGIVHVGKTIHRLVTG-NH2 [Piscidin-1] | 50.29 | 61.02
